Laboratory results: US20150322120A1, “SODIUM CHANNEL SENSITIVE CONOPEPTIDES AND ANALOGS, INCLUDING COMPOSITIONS AND METHODS THEREOF” (University of Utah Research Foundation, published 2015)
Substitutions are numbered along the chain they refer to. Names may count otherwise.

B1: C.geo1[C24S] (peptide)
peptide: GWCGDAGATCGKLRLYCCSGFCDSYTKTCKDKSSA
B2: C.geo1[C24K] (peptide)
peptide: B1 peptide with S24K
B3: C.geo1[C24E] (peptide)
peptide: B1 peptide with S24E
B4: C. geo1[des-Ser34] (peptide)
peptide: GWCGDAGATCGKLRLYCCSGFCDCYTKTCKDKSA
modifications: O is hydroxyproline; peptide-GSH adduct at Cys-24; carboxylated C-terminus
B5: C.geo1[K27G] (peptide)
peptide: B1 peptide with S24C, K27G

What was measured:
[1] = target: T1, human NaV1.7 voltage-gated sodium channel (human, UniProt Q15858); experiment: cell-based or functional assay
[2] = target: T1, human NaV1.7 voltage-gated sodium …; experiment: cell-based or functional assay; remark: listed apart in the source

Binder	IC50, block of hNaV1.7 [1] [nM]	IC50, concentration response curve against hNaV1.7 (QPatch assay) [2] [nM]
B1	> 10000	
B2	> 10000	
B3	> 10000	
B4		1800
B5	1600	
